A mixed list of measured activities; the numbers were collected in NIAID ChemDB.

Common to all: growth or infection tests; organism: HIV-1; read-out: EC50

Lines come from different laboratories, so protocols vary.

smiles | read by | mutations | cells | strain or isolate | setting | result
Cc1cn([C@@H]2O[C@H](CO[Si](C)(C)C(C)(C)C)C3(OC(=O)N=C3N)[C@H]2O[Si](C)(C)C(C)(C)C)c(=O)[nH]c1=O | syncytia | - | CEM | IIIB | - | >35 µM
O=C(O)P(=O)(O)O | p24 / ELISA | - | H9 | - | - | <25 µg/mL
Cc1cn([C@@H]2O[C@H](CO[Si](C)(C)C(C)(C)C)C3(OC(=O)N(C)C3=N)[C@H]2O[Si](C)(C)C(C)(C)C)c(=O)n(C)c1=O | - | - | MT-4 | IIIB | - | >175 µM
Nc1ccn([C@H]2CC[C@@H](CO)O2)c(=O)n1 | cytopathic effect / MTT | - | MT-2 | H112-2 | - | 0.32 µM
CC(C)(C)OC(=O)N[C@@H](Cc1ccccc1)[C@H](O)CNC[C@@H](O)[C@H](Cc1ccc(OCC(=O)N2CCOCC2)cc1)NC(=O)OC(C)(C)C | p24 | - | MT-2 | RF | - | 0.03 µM
CCCCCCCCCCCCCCOC[C@H](CO[C@]1(C(=O)O)C[C@H](OS(=O)(=O)O)[C@@H](NC(C)=O)[C@H]([C@H](OS(=O)(=O)O)[C@@H](COS(=O)(=O)O)OS(=O)(=O)O)O1)OCCCCCCCCCCCCCC | p24 | - | H9 | IIIB | - | 9 µM
CC(C)(C)NC(=O)[C@@H]1C[C@@H]2CCCC[C@@H]2CN1C[C@@H](O)[C@H](Cc1ccccc1)NC(=O)[C@@H](NC(=O)c1cnc2ccccc2n1)[C@H]1CCOC1 | p24 | - | MT-4 | IIIB | - | <0.012 µM
N#Cc1cc(Cl)cc(Oc2c(Br)ccc(Cn3cn[nH]c3=O)c2F)c1 | MTT | NNRTI-resistant (RT K103N/Y181C) | MT-4 | K103N/Y181C | - | 0.055 µM
CC(=O)c1ccc(C)cc1NC(C(N)=O)c1c(Cl)cccc1Cl | MTT | RT-L100I | MT-4 | 13MB1 (TIBO-resistant RT L100I) | - | 0.007 µg/mL
N#Cc1cc(Cl)cc(Oc2c(Br)ccc(Cn3c(=O)[nH]c4nnccc43)c2F)c1 | MTT | Wild type | MT-4 | - | - | 0.004 µM
CCCc1cc(=O)oc2c(C(=O)C(C)(C)C(C)O)c(O)c3c(c12)OC(C)(C)C=C3 | cytopathic effect / MTT | - | CEM + CEM-SS | IIIB | - | >37 µM
Nc1ccn([C@H]2CC[C@@H](CO)O2)c(=O)n1 | cytopathic effect | - | MT-4 | IIIB | - | 1.9 ± 0.8 µM
CCc1c(CC23CC4CC(CC(C4)C2)C3)nc(SCc2ccc(OC)cc2)[nH]c1=O | MTT / absorbance | - | MT-4 | IIIB | - | 0.31 µM
CC(C)(C)NC(=O)[C@@H]1C[C@@H]2CCCC[C@@H]2CN1C[C@@H](O)[C@H](Cc1ccccc1)NC(=O)[C@@H](NC(=O)c1ccc2ccccc2n1)[C@H]1CCSC1 | p24 | - | MT-4 | IIIB | - | <0.05 µM
Cc1cn([C@H]2C=C[C@@H](CO)O2)c(=O)[nH]c1=O | cytopathic effect / p24 / trypan blue | - | MT-4 | IIIB | - | 0.22 µM
C[C@H]1[C@H](O)[C@@H](C)/C=C/C=C/C=C/C=C/C=C/C=C/C=C/[C@H](O[C@@H]2O[C@H](C)[C@@H](O)[C@H](N)[C@@H]2O)C[C@@H]2O[C@](O)(C[C@@H](O)C[C@@H](O)CC[C@H](O)[C@@H](O)C[C@@H](O)CC(=O)O[C@H]1C)C[C@H](O)[C@H]2C(=O)O | p24 / ELISA | - | H9 | - | - | <5 µg/mL
Cc1ccnc2c1NC(=O)c1cccnc1N2C1CC1 | antigen | E138K | C8166 | NL4-3 | - | 0.176 µM
CCOC(=O)CCNC(=O)c1ccccc1SSc1ccccc1C(=O)NCCC(=O)OCC | cytopathic effect / XTT | - | CEM | - | - | >40 µM
Cc1cn(Cc2ccc(Br)c(Oc3cc(Cl)cc(C#N)c3)c2F)c(=O)[nH]c1=O | MTT | Wild type | MT-4 | - | - | 0.001 µM
CCCc1cc(=O)oc2c(C(=O)C(C)C(C)(C)O)c(O)c3c(c12)OC(C)(C)C=C3 | cytopathic effect / MTT | - | CEM + CEM-SS | IIIB | - | >27.1 µM
CC(C)[C@H](NC(=O)c1ccc2ccccc2n1)C(=O)N[C@@H](Cc1ccccc1)[C@H](O)CN1C[C@H]2CCCC[C@H]2C[C@H]1C(=O)NC(C)(C)C | p24 | - | MT-4 | IIIB | - | <0.1 µM
Cn1cc(Cc2ccc(Br)c(Oc3cc(Cl)cc(C#N)c3)c2F)c(=O)[nH]c1=O | MTT | Wild type | MT-4 | - | - | 0.005 µM
CCCc1cc(=O)oc2c3c(c4c(c12)OC(C)(C)C=C4)O[C@@H](C)[C@H](C)[C@H]3O | cytopathic effect / MTT | - | MT-2 | G910-6 AZT-resistant | - | >25 µM
CC(C)CC(NC(=O)c1ccccc1SSc1ccccc1C(=O)NC(CC(C)C)C(=O)NC(C)C(=O)O)C(=O)NC(C)C(=O)O | cytopathic effect / XTT | - | CEM | - | - | 71 µM
CN(C)c1nc(N)c(C(=O)N[C@H](C(=O)N[C@@H](Cc2ccccc2)[C@H](O)CN2C[C@H]3CCCC[C@H]3C[C@H]2C(=O)NC(C)(C)C)[C@H]2CCOC2)nc1Cl | p24 | - | MT-4 | IIIB | - | <0.025 µM
Cc1cc2c(C(C)C)c(O)c(O)c(C=NCCO)c2c(O)c1-c1c(C)cc2c(C(C)C)c(O)c(O)c(C=NCCO)c2c1O | - | - | PBMC | LAV | - | 6 µM
Cc1ccnc2c1NC(=O)c1cccnc1N2C1CC1 | β-galactosidase | RT-K103N L100I | MAGI | NNRTI-resistant (RT K103N L100I) | - | 7.9 µM
N#Cc1cc(Cl)cc(Oc2c(Br)ccc(Cn3cc(Cl)c(=O)[nH]c3=O)c2F)c1 | MTT | NNRTI-resistant (RT K103N/Y181C) | MT-4 | K103N/Y181C | - | 0.01 µM
CN(C(=O)c1ccccc1SSc1ccccc1C(=O)N(C)c1ccc(S(N)(=O)=O)cc1)c1ccc(S(N)(=O)=O)cc1 | cytopathic effect / XTT | - | CEM | - | - | 22 µM
N#Cc1cc(Cl)cc(Oc2c(Br)ccc(CN3CC(=O)NC3=O)c2F)c1 | MTT | Wild type | MT-4 | - | - | 0.004 µM
CCCc1cc(=O)oc2c3c(c4c(c12)OC(C)(C)C=C4)O[C@@H](C)[C@H](C)C3=O | cytopathic effect / MTT | - | CEM + CEM-SS | IIIB | - | 2.47 µM
CCc1c(CC23CC4CC(CC(C4)C2)C3)nc(SCC(=O)Nc2ccc(C(N)=O)cc2)[nH]c1=O | MTT / absorbance | - | MT-4 | IIIB | - | 0.27 µM
CC(=O)Nc1cnc(Oc2c(Cl)cccc2Cl)nc1Nc1ccc(C#N)cc1 | MTT | - | MT-4 | IIIB | - | 32.3 µM
Nc1ccn([C@H]2CC[C@@H](CO)O2)c(=O)n1 | cytopathic effect / XTT | - | CEM | - | - | 0.11 µg/mL
CCC(=O)c1ccc(NC(=O)c2ccccc2SSc2ccccc2C(=O)Nc2ccc(C(=O)CC)cc2)cc1 | cytopathic effect / XTT | - | CEM | - | - | 16 µM
CCCCCCCCCCCCCCCCCCCCCCCCOC[C@H](CO[C@]1(C(=O)O)C[C@H](OS(=O)(=O)O)[C@@H](NC(C)=O)[C@H]([C@H](OS(=O)(=O)O)[C@@H](COS(=O)(=O)O)OS(=O)(=O)O)O1)OCCCCCCCCCCCCCCCCCCCCCCCC | p24 | - | H9 | IIIB | - | 1 µM
Cc1ccnc2c1NC(=O)c1cccnc1N2C1CC1 | RT activity | K103N | - | - | pseudotyped | >10 µM
Nc1ncnc2c1ncn2[C@H]1CC[C@@H](CO)C1 | cytopathic effect / XTT | - | MT-2 | - | - | 24.3 µg/mL
CC[C@H](C)[C@H](NC(=O)c1ccccc1SSc1ccccc1C(=O)N[C@H](C(=O)O)[C@@H](C)CC)C(=O)O | cytopathic effect / XTT | - | CEM | - | - | 9 µM
O=C([O-])c1cc(COc2ccc(-c3c4nc(c(-c5ccc(OCc6cc(C(=O)[O-])cc(C(=O)[O-])c6)cc5)c5ccc([n-]5)c(-c5ccc(OCc6cc(C(=O)[O-])cc(C(=O)[O-])c6)cc5)c5nc(c(-c6ccc(OCc7cc(C(=O)[O-])cc(C(=O)[O-])c7)cc6)c6ccc3[n-]6)C=C5)C=C4)cc2)cc(C(=O)[O-])c1 | β-galactosidase | - | MAGI cell | IIIB | - | 0.059 µM
CCc1c(CC23CC4CC(CC(C4)C2)C3)nc(SCC(=O)Nc2ccccc2)[nH]c1=O | MTT / absorbance | - | MT-4 | IIIB | - | 0.89 µM
Cc1cc2c(C(C)C)c(O)c(O)c(C=Nc3ccccc3)c2c(O)c1-c1c(C)cc2c(C(C)C)c(O)c(O)c(C=Nc3ccccc3)c2c1O | - | - | PBMC | LAV | - | 91.5 µM
c1cc(CN2CCCNCCNCCCNCC2)ccc1CN1CCCNCCNCCCNCC1 | β-galactosidase | - | MAGI cell | IIIB | - | 0.0034 µM
CC(=O)Nc1cnc(Oc2c(C)cc(C#N)cc2C)nc1Nc1ccc(C#N)cc1 | MTT | - | MT-4 | RES056 | - | >30.11 µM
c1cc(CN2CCCNCCNCCCNCC2)ccc1CN1CCCNCCNCCCNCC1 | p24 | - | PBMC | SW29 CLADE C R5 | - | >0.5 µM
N#Cc1ccc(Nc2nc(Oc3c(Cl)cccc3Cl)ncc2N)cc1 | MTT | - | MT-4 | RES056 | - | >33.04 µM
N#Cc1cc(Cl)cc(Oc2c(Br)ccc(Cn3[nH]c(=O)[nH]c3=O)c2F)c1 | MTT | Wild type | MT-4 | - | - | 0.003 µM
CCc1c(CC23CC4CC(CC(C4)C2)C3)nc(SCC(=O)c2ccc(OC)cc2)[nH]c1=O | MTT / absorbance | - | MT-4 | IIIB | - | 0.1 µM
Cc1cc(C=O)cc(C)c1Oc1ncc(NC(=O)C(F)(F)F)c(Nc2ccc(C#N)cc2)n1 | MTT | - | MT-4 | IIIB | - | 0.4831 µM
Nc1ncnc2c1ncn2[C@H]1CC[C@@H](CO)O1 | - | - | PBMC | - | - | 0.09 µM
CCc1c(CC23CC4CC(CC(C4)C2)C3)nc(SCC(=O)Nc2ccc(C(C)=O)cc2Br)[nH]c1=O | MTT / absorbance | - | MT-4 | IIIB | - | 0.25 µM
COC(=O)C(CO)N=Cc1c(O)c(O)c(C(C)C)c2cc(C)c(-c3c(C)cc4c(C(C)C)c(O)c(O)c(C=NC(CO)C(=O)OC)c4c3O)c(O)c12 | - | - | PBMC | LAV | - | 2.2 µM
C1CNCCNCCCN(CCCN2CCCNCCNCCCNCC2)CCNC1 | cytopathic effect / MTT | - | MT-4 | NL43)(JM3100r) | - | 96 µg/mL
Cc1ccc(NC(=O)c2ccccc2SSc2ccccc2C(=O)Nc2ccc(C)cc2)cc1 | cytopathic effect / XTT | - | CEM | - | - | 9.1 µM
O=c1[nH]c(=O)n([C@H]2C[C@H](F)[C@@H](CO)O2)cc1Cl | plaque count | RT-Y181C | CD4+HELA + HeLa | RT Y181C (NNRTI-resistant) | - | 13.7 µM
Cc1c(CC23CC4CC(CC(C4)C2)C3)nc(SCC(=O)Nc2ccc(C#N)cc2)[nH]c1=O | MTT / absorbance | - | MT-4 | RES056 | - | >6.69 µM
CCCCCCCCCCCCCCCCCCCCCCOCC(C)(COCCCCCCCCCCCCCCCCCCCCCC)CO[C@]1(C(=O)O)C[C@H](OS(=O)(=O)O)[C@@H](NC(C)=O)[C@H]([C@H](OS(=O)(=O)O)[C@@H](COS(=O)(=O)O)OS(=O)(=O)O)O1 | p24 | - | PBMC | 9446 Clinical isolate | - | 10 µM
O=c1[nH]cnc2c1ncn2[C@H]1CC[C@@H](CO)O1 | MTT | RT-M184V | MT-4 | 3TC 3TC-resistant (RT M184V) | - | 3.6 µg/mL
O=C(O)c1ccc(NC(=O)c2ccccc2SSc2ccccc2C(=O)Nc2ccc(C(=O)O)cc2)cc1 | cytopathic effect / XTT | - | CEM | - | - | 3 µM
O=C(O)c1ccc(-c2c3nc(c(-c4ccc(C(=O)O)cc4)c4ccc([nH]4)c(-c4ccc(C(=O)O)cc4)c4nc(c(-c5ccc(C(=O)O)cc5)c5ccc2[nH]5)C=C4)C=C3)cc1 | β-galactosidase | - | MAGI cell | IIIB | - | 2.6 µM
Nc1nc2c(ncn2[C@H]2C=C[C@@H](CO)C2)c(=O)[nH]1 | cytopathic effect / XTT | - | ATH8 | - | - | 0.19 µg/mL
Cc1c(CC23CC4CC(CC(C4)C2)C3)nc(SCC(=O)Nc2ccc(S(N)(=O)=O)cc2)[nH]c1=O | MTT / absorbance | - | MT-4 | IIIB | - | >4.99 µM
Cc1cc2c(C(C)C)c(O)c(O)c(C=Nc3ccc(C(=O)O)cc3)c2c(O)c1-c1c(C)cc2c(C(C)C)c(O)c(O)c(C=Nc3ccc(C(=O)O)cc3)c2c1O | - | - | PBMC | LAV | - | 47.8 µM
Cc1cc(C)cc(C(=O)c2cc(Cl)ccc2OCCN2CCC(=O)NC2=O)c1 | RT activity | - | - | - | pseudotyped | 0.08 µM
CCCCCCCCCCCCCCCCCCCCCCOC[C@H](CO[C@]1(C(=O)O)C[C@H](OS(=O)(=O)O)[C@@H](NC(C)=O)[C@H]([C@H](OS(=O)(=O)O)[C@@H](COS(=O)(=O)O)OS(=O)(=O)O)O1)OCCCCCCCCCCCCCCCCCCCCCC | p24 | - | H9 | IIIB | - | 1 µM
CC(C)Nc1cccnc1N1CCN(C(=O)c2cc3cc(NS(C)(=O)=O)ccc3[nH]2)CC1 | MTT / absorbance | - | MT-4 | IIIB | - | 0.033 µM

The last 4 rows once more:

| smiles | read by | mutations | cells | strain or isolate | setting | result |
|---|---|---|---|---|---|---|
| Cc1cc2c(C(C)C)c(O)c(O)c(C=Nc3ccc(C(=O)O)cc3)c2c(O)c1-c1c(C)cc2c(C(C)C)c(O)c(O)c(C=Nc3ccc(C(=O)O)cc3)c2c1O | - | - | PBMC | LAV | - | 47.8 µM |
| Cc1cc(C)cc(C(=O)c2cc(Cl)ccc2OCCN2CCC(=O)NC2=O)c1 | RT activity | - | - | - | pseudotyped | 0.08 µM |
| CCCCCCCCCCCCCCCCCCCCCCOC[C@H](CO[C@]1(C(=O)O)C[C@H](OS(=O)(=O)O)[C@@H](NC(C)=O)[C@H]([C@H](OS(=O)(=O)O)[C@@H](COS(=O)(=O)O)OS(=O)(=O)O)O1)OCCCCCCCCCCCCCCCCCCCCCC | p24 | - | H9 | IIIB | - | 1 µM |
| CC(C)Nc1cccnc1N1CCN(C(=O)c2cc3cc(NS(C)(=O)=O)ccc3[nH]2)CC1 | MTT / absorbance | - | MT-4 | IIIB | - | 0.033 µM |

ECn is the concentration giving n% inhibition of infection, replication or growth. Blank or dashed fields: not listed here.